The assay addresses SARS-CoV-2 Spike receptor binding domain (RBD), reference (USA/WA_CDC-WA1/2020) (SARS-CoV-2) (UniProt P0DTC2). Put plainly: cell-based or functional assay.

On to Anti-RSV (antibody), for which the Phagocytosis score at 0.6 nM was found to be 1.38.
